Record: PubChem BioAssay AID624099 (ICCB-Longwood, 2012)
This is a random part of about 21,000 reagents tested. Over the whole deposit, 497 (2.4%) were called active. 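Higher z means weaker E2 silencing; only reporter increases were scored, and knock-downs that hurt cell survival may mask genuine repressor factors.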 A number with no mark means an inactive call. The numbers tell different reagents against one gene apart.

Purpose: 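Knock-downs relieving repression by E2 of an HPV18 LCR luciferase reporter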 (primary screen)
Cells: human C33A cervical carcinoma cells (HPV-negative) stably expressing BPV1 E2 and an HPV18 LCR luciferase reporter
Knock-down reagent: siRNA pool against human genes, 40 nM
Time to read-out: 72 h
Read-out: 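Per-well luciferase luminescence, z-scored on each plate against the plate mean and SD with control wells left out, then averaged across three replicate plates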
Direction: mean z-score and z-score: higher = stronger reporter signal, weaker E2 silencing
Call rule: 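Mean z ≥ 2 together with z ≥ 2 in two or more of the three replicates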

| gene | pool no. | mean z-score | z-score, replicate A | z-score, replicate B | z-score, replicate C |
| --- | --- | --- | --- | --- | --- |
| FRMPD4 | 1 | -0.35 | -0.46 | -0.31 | -0.29 |
| VN1R2 | 1 | 1.71 | 1.88 | 1.67 | 1.58 |
| GAST | 1 | 0.57 | 0.52 | 0.64 | 0.54 |
| PTCD1 | 1 | -1.29 | -1.53 | -1.46 | -0.89 |
| EEF1A1 | 1 | 1.38 | 1.31 | 1.2 | 1.64 |
| LOC402537 (retired record) | 1 | -0.9 | -1.05 | -0.84 | -0.81 |
| S100A13 | 1 | 0.17 | 0.43 | 0.53 | -0.44 |
| OR4A15 | 1 | -0.24 | -0.39 | 0.23 | -0.57 |
| CXXC1P1 | 1 | 0.09 | 0.01 | 0.18 | 0.07 |
| RAD54B | 1 | 0.03 | 0.11 | -0.03 | 0 |
| RAD54B | 2 | 0.05 | 0.1 | -0.15 | 0.19 |
| SCRN3 | 1 | 0.55 | 0.87 | 0.61 | 0.18 |
| C2CD4B | 1 | -0.41 | -0.94 | -0.3 | -0.01 |
| LAMC1 | 1 | 0.06 | 0.36 | -0.19 | 0 |
| LINC00934 | 1 | 0.83 | 0.76 | 0.98 | 0.75 |
| STX12 | 1 | 0.62 | 0.54 | 0.69 | 0.63 |
| EGLN2 | 1 | 3.14 (active) | 3.08 | 3.34 | 3 |
| PSAP | 1 | 0.72 | 0.84 | 0.59 | 0.73 |
| ZNF576 | 1 | 0.47 | 0.67 | 0.16 | 0.59 |
| TMEM134 | 1 | 1.01 | 1.61 | 0.5 | 0.92 |
| COL5A2 | 1 | 0.71 | 0.82 | 0.52 | 0.78 |
| RPL7P23 | 1 | -5.36 | -5.53 | -5.46 | -5.09 |
| LINC01341 | 1 | -0.9 | -1.73 | -0.69 | -0.29 |
| CD1A | 1 | 0.27 | 0.28 | 0.39 | 0.13 |
| SNAP25 | 1 | -0.47 | -0.37 | -0.64 | -0.4 |
| PLD3 | 1 | -0.26 | -0.17 | -0.42 | -0.18 |
| EFHC2 | 1 | 0.02 | -0.24 | 0.19 | 0.12 |
| BPIFB2 | 1 | -0.12 | -0.39 | 0.21 | -0.18 |
| RGS3 | 1 | 0.21 | 0.03 | 0.16 | 0.43 |
| EFCAB12 | 1 | 1.33 | 1.16 | 1.39 | 1.46 |
| PLP2 | 1 | 0.25 | 0.08 | 0.67 | -0.01 |
| FGF23 | 1 | -0.78 | -0.82 | -0.83 | -0.68 |
| GLI3 | 1 | -1.14 | -0.82 | -1.38 | -1.22 |
| TMEM145 | 1 | -0.95 | -1.23 | -0.83 | -0.8 |
| LOC400496 (retired record) | 1 | 0.51 | 0.63 | 0.58 | 0.32 |
| GNA12 | 1 | -0.61 | -0.75 | -0.77 | -0.31 |
| AKR7A3 | 1 | -0.04 | 0 | -0.09 | -0.04 |

Next part (8 carried over from the part before).
| gene | pool no. | mean z-score | z-score, replicate A | z-score, replicate B | z-score, replicate C |
| --- | --- | --- | --- | --- | --- |
| EFCAB12 | 1 | 1.33 | 1.16 | 1.39 | 1.46 |
| PLP2 | 1 | 0.25 | 0.08 | 0.67 | -0.01 |
| FGF23 | 1 | -0.78 | -0.82 | -0.83 | -0.68 |
| GLI3 | 1 | -1.14 | -0.82 | -1.38 | -1.22 |
| TMEM145 | 1 | -0.95 | -1.23 | -0.83 | -0.8 |
| LOC400496 (retired record) | 1 | 0.51 | 0.63 | 0.58 | 0.32 |
| GNA12 | 1 | -0.61 | -0.75 | -0.77 | -0.31 |
| AKR7A3 | 1 | -0.04 | 0 | -0.09 | -0.04 |
| GNPAT | 1 | 1 | 1.18 | 0.76 | 1.07 |
| ZNF114 | 1 | -0.4 | -0.12 | -0.38 | -0.71 |
| CDKAL1 | 1 | -0.65 | -0.7 | -0.61 | -0.64 |
| DKC1 | 1 | 0.67 | 0.81 | 0.86 | 0.33 |
| KHNYN | 1 | 0.25 | 0.12 | 0.44 | 0.19 |
| DTNB | 1 | -0.91 | -1.05 | -0.75 | -0.91 |
| TOM1 | 1 | 0.79 | 0.81 | 0.72 | 0.83 |
| OSTN | 1 | 3.64 (active) | 3.64 | 3.68 | 3.6 |
| UHRF1 | 1 | -1.17 | -1.15 | -1.28 | -1.07 |
| FLRT2 | 1 | -0.01 | -0.07 | -0.05 | 0.09 |
| HLA-F-AS1 | 1 | 0.88 | 0.71 | 0.78 | 1.16 |
| DYNLT1 | 1 | 0.83 | 1.03 | 0.79 | 0.66 |
| ZNF423 | 1 | -0.36 | -0.37 | -0.2 | -0.52 |
| XXYLT1 | 1 | -0.9 | -0.99 | -0.85 | -0.85 |
| C6orf62 | 1 | 0.35 | 0.28 | 0.2 | 0.59 |
| LACC1 | 1 | 0.03 | 0.44 | 0.15 | -0.49 |
| TF | 1 | 1.31 | 1.43 | 0.8 | 1.69 |
| HLA-DRB5 | 1 | -1.19 | -1.35 | -1.05 | -1.17 |
| OR5B21 | 1 | -0.09 | -0.12 | -0.08 | -0.07 |
| LOC285694 (retired record) | 1 | 1.34 | 1.07 | 1.34 | 1.6 |
| CD46 | 1 | -0.69 | -0.74 | -0.63 | -0.69 |
| LINC00316 | 1 | 0.18 | 0.16 | 0.04 | 0.33 |
| LOC388298 (retired record) | 1 | -0.34 | -0.29 | -0.32 | -0.4 |
| ZBBX | 1 | 1.29 | 1.3 | 1.26 | 1.31 |
| MRPS22 | 1 | 0.13 | -0.08 | 0.13 | 0.35 |
| PNN | 1 | 0.93 | 0.88 | 0.97 | 0.93 |
| LOC340171 (retired record) | 1 | 0.28 | 0.25 | 0.19 | 0.39 |
| SMCO2 | 1 | 0.55 | 0.62 | 0.48 | 0.54 |
| TRMT1L | 1 | 2.51 (active) | 1.93 | 2.61 | 2.98 |
| STK36 | 1 | 0.91 | 1.09 | 1.03 | 0.63 |
| USP10 | 1 | 0.6 | 0.47 | 0.6 | 0.72 |
| OLFM3 | 1 | -1.08 | -1.18 | -0.99 | -1.07 |
| CP | 1 | -0.66 | -0.42 | -0.72 | -0.83 |
| MED16 | 1 | 0.79 | 0.98 | 0.82 | 0.58 |
| IRX2 | 1 | -0.38 | -0.38 | -0.49 | -0.28 |
| SMLR1 | 1 | -0.53 | -0.51 | -0.55 | -0.52 |
